# Assay results from patent publication US9402819B2, “Anti-HIV compound and preparation method and use thereof” (Sichuan University, priority 2012, dated 2016).
# Test: Cytotoxicity (CC50) in C8166 cells
# Format: cell-based
# Conditions: human
smiles,measurement,value
"COc1ccccc1NC(=O)c1cc(N)ccc1Sc1ccc([N+](=O)[O-])cc1 [Compound 24, 5-amino-N-(2-methoxyphenyl)-2-((4-nitrophenyl)thio)benzamide]",CC50,172 µg/mL
